The results in this text go back to US20240199725A1 (KOREA UNIVERSITY RESEARCH AND BUSINESS FOUNDATION, published 2024).

The labels stand for the following.
B1: scFv variant JS 1 (scFv, V domains shown)
VH: QVQLVQSGGGVVQPGSSLRLSCEASGFAIGDNALNWVRQAPGKGLEWVGYIRSNSYGGTAEYAASVKGRFTISRDESKNIAYLEMNSLRAEDTAVYYCARRAHYYGDSTYNPSWYFDLWGRGTPVTVSS
VL: EIVLTQSPSFLSASVGDRVTITCRASQDVSRRLAWYQRKPGKAPKLLIYGVSNLASGVPSRFTGSGSGTEFTLTISSLQSDDFATYYCQQGYSSPRTFGQGTKVDIK
B2: scFv variant JS 4 (scFv, V domains shown)
VH: QVQLVQSGGGVVQPGSSLRLSCEASGFAIGDNALNWVRQAPGKGLEWVGYIRSNSYGGTAEYAASVKGRFTISRDESKNIACLEMNSLRAEDTAVYYCARRAHYYGGSTYNPSWYFDLWGRGTPVTVSS
VL: EIVLTQSPSFLSAFVGDRVTITCRASQDISGRLAWYQRKLGKAPKLLIYGASNLASGVPSRFTGSGSGTEFTLTISSLQSDDFATYYCQQGYSSPRTFGQGTKVDIK
B3: scFv variant JS 2 (scFv, V domains shown)
VH: QVQLVQSGGGVVQPGSSLRLSCEASGFAIGDNALNWVRQAPGKGLEWVDYIRSNSYGGTAEYAASVKGRFTISRDESKNIAYLEMNSLRAEDTAVYYCARRAHYYGGSTYNPSWYFDLWGHGTPVTVSS
VL: EIVLTQSPSFLFASVGDRVTITCRASQDISRRLAWYQRKPGKAPKLLIYGASNLASGVPSRFTGSGSGTEFTLTISSLQSDDFATYYCQQGYSSPRTFGQGTKVDIK
B4: scFv variant JS 3 (scFv, V domains shown)
VH: QVQLVQSGGGVVQPGSSLRLSCEASGFAIGGNALNWVRQAPGKGLEWVGYIRSNSYGGTAEYAASVKGRFTISRDESKNIAYLEMNSLRAEDTAVYYCARRAHYYGGSTYNPSWYFDLWGRGTPVTVSS
VL: EIVLTQSPSFLSASVGDRVTITCRASQDISRRLAWYQRKPGKAPKLLIFGASNLASRVPSRFTGSGSGTEFTLTISSLQSDDFATYYCQQGYGSPRTFGQGTKVDIK

The target of this test is T1, COVID-19-RBD-GST (SARS-CoV-2 (COVID-19 virus), wild type).
T1 construct: also called dimeric RBD fused with a GST tag; COVID-19-RBD-GST-Alexa488 probe
Kind of test: flow cytometry, variant on spheroplasts, 50 nM COVID-19 RBD-Alexa 488 antigen.
B1: the binding result is “binds”.

Turning to B2, the binding result was “binds”.

For the molecule B3, the binding result is given as “binds”.

B4: the binding result was “binds”.
